Anti-infective test results gathered from many reports (values: NIAID ChemDB through PubChem).

All rows: toxicity to cultured cells; cells: TZM-bl; measure: CC50

CCn is the concentration with n% toxicity to the cells.

Oc1cccc2ccc(/C=N/Nc3ccc(Cl)cc3Cl)nc12 ; read by: MTT ; result: 52.68 µM
C[Si](C)(CCCN(CCS(=O)(=O)O)CCS(=O)(=O)O)CCC[Si](C)(CCC[Si](C)(C)CCCN(CCS(=O)(=O)O)CCS(=O)(=O)O)CCC[Si](CCC[Si](C)(CCC[Si](C)(C)CCCN(CCS(=O)(=O)O)CCS(=O)(=O)O)CCC[Si](C)(C)CCCN(CCS(=O)(=O)O)CCS(=O)(=O)O)(CCC[Si](C)(CCC[Si](C)(C)CCCN(CCS(=O)(=O)O)CCS(=O)(=O)O)CCC[Si](C)(C)CCCN(CCS(=O)(=O)O)CCS(=O)(=O)O)CCC[Si](C)(CCC[Si](C)(C)CCCN(CCS(=O)(=O)O)CCS(=O)(=O)O)CCC[Si](C)(C)CCCN(CCS(=O)(=O)O)CCS(=O)(=O)O ; read by: MTT ; result: >100 µM
CC(C)(N)CC(NC(=O)c1ccc(-c2ccc(C(F)(F)F)cn2)[nH]1)c1nc(CO)cs1 ; read by: MTS / absorbance ; result: 59 µM
Cc1cc(/C=C\C#N)cc(C)c1Nc1nc(N)nc(Nc2ccc(C#N)cc2)n1 ; read by: WST ; result: 30.83 µM
CCN(CC)C(=O)Oc1ccc2cccnc2c1-c1cccc2cccnc12 ; read by: MTT ; result: >200 µM
Oc1cccc2ccc(/C=N/Nc3ccc(F)cc3)nc12 ; read by: MTT ; result: 96.7 µM
O=C(CCC(=O)n1cnc2ccccc21)n1cnc2ccccc21 ; read by: MTT ; result: 202.8 µM
CC(C)(C)OC(=O)c1cccc(Cn2ccc3ccc(-c4ccc5ccn(Cc6cccc(C(=O)O)c6)c5c4)cc32)c1 ; read by: MTT ; result: >20 µM
O=C(Cn1ccc(=O)[nH]c1=O)Nc1ccccn1 ; read by: MTT ; result: 602 µM
Oc1cc(/C=C/c2cc(O)c(O)c(O)c2)cc(O)c1O ; read by: MTT ; result: 20.1 µM
COc1ccc(/C=C/c2cc(Cl)c3ccccc3n2)cc1 ; read by: MTT ; result: 53.08 µM
O=C(Cn1ccc(=O)[nH]c1=O)Nc1ccc([N+](=O)[O-])cn1 ; read by: MTT ; result: 6.32 µM
Cc1nc(C(CN)NC(=O)c2ccc(-c3ccc4c(c3)OCO4)[nH]2)sc1CO ; read by: MTS ; result: >100 µM
Clc1ccc2nc(/C=C/c3ccc(N4CCCC4)cc3)cc(Cl)c2c1 ; read by: MTT ; result: 51.45 µM
Cc1cc(C)nc(N2C(=O)CSC2c2c(Br)cncc2Br)c1 ; read by: MTT ; result: 49.8 µg/mL
COC(=O)CCCn1cc(-c2cccc(C(=O)N[C@@H](Cc3ccccc3)C(=O)N(C)c3ccc(OC)cc3)c2)nn1 ; read by: MTT ; result: >35.99 µM
CSc1nc(Cl)cc(N2C(=O)CSC2c2c(F)cccc2Cl)n1 ; read by: MTT ; result: 27 µg/mL
Clc1ccc2nc(/C=C/c3ccc(N4CCOCC4)cc3)cc(Cl)c2c1 ; read by: MTT ; result: 35.3 µM
NCC(NC(=O)c1ccc(-c2ccc(C(F)(F)F)cc2)[nH]1)c1ncc(CO)s1 ; read by: MTS / absorbance ; result: 34 µM
Cc1cc(N2C(=O)CSC2c2c(Cl)cccc2Cl)nc(C)c1Br ; read by: MTT ; result: 2.5 µg/mL
CCCCCCCCCCCCCCCCOC1O[C@@H](CO)[C@H](O)[C@H](O)[C@@H]1O ; read by: resazurin ; result: >400 µM
Cc1nc(N2C(=O)CSC2c2c(Cl)cncc2Cl)ccc1Br ; read by: MTT ; result: 66.7 µg/mL
Cc1cn([C@H]2C[C@H](N=[N+]=[N-])[C@@H](CO)O2)c(=O)[nH]c1=O ; read by: MTT ; result: 872 µM
NCC(NC(=O)c1ccc(-c2ccc(C(F)(F)F)cc2)[nH]1)c1ncc(COCC(O)CO)s1 ; read by: MTS ; result: 61.9 µM
O=C(Cn1ccc(=O)[nH]c1=O)Nc1ccc(Br)cn1 ; read by: MTT ; result: 215 µM
NCCC(NC(=O)c1ccc(-c2ccc(Cl)nc2)[nH]1)c1nc(CO)cs1 ; read by: MTS / absorbance ; result: >132 µM
O=C1NC(=NCc2ccc(Cl)cc2)S/C1=C\c1ccc(-c2ccc(C(=O)O)c(O)c2)o1 ; read by: XTT ; result: >50 µM
C[C@@H]1O[C@H]2O[C@H]3[C@@H](C)OC(c4ccc5c(c4O)C(=O)c4ccc(C[C@@](C)(O)CC(=O)O)c(O)c4C5=O)C[C@H]3O[C@H]2CC1=O ; read by: absorbance ; result: 47.6 µM
O=C(/C=C/c1ccc(O)c(O)c1)c1ccc(NC(=O)c2ccccc2)cc1 ; result: 50.2 µM
CCc1ccc(CCN=C2NC(=O)/C(=C/c3ccc(-c4ccc(C(=O)O)c(O)c4)o3)S2)cc1 ; read by: XTT ; result: >50 µM
CNc1nc(Nc2ccc(C#N)cc2)nc(Nc2c(C)cc(/C=C/C#N)cc2C)n1 ; read by: WST ; result: 5.91 µM
Oc1cccc2ccc(/C=N/Nc3ccccc3C(F)(F)F)nc12 ; read by: MTT ; result: 19.71 µM
Cc1cc(C)c(Nc2ccnc(Nc3ccc(C#N)cc3)n2)c(C)c1 ; read by: MTT / absorbance ; result: 20.4 µM
Cc1cn(C2CC(n3nnc(C4CC4)c3C3(C(F)(F)F)OC(=O)Nc4ccc(Cl)cc43)C(CO)O2)c(=O)[nH]c1=O ; read by: MTS ; result: 63.83 µg/mL
CC(C)C[C@H](NC(=O)c1ccc(NC(=O)[C@@H](N)Cc2c[nH]c3ccccc23)c(OCCc2c[nH]c3ccccc23)c1)C(=O)O ; read by: absorbance ; result: >50 µM
Cc1cc(/C=C/C#N)cc(C)c1Oc1nc(Nc2ccc(C#N)cc2)nc(N2CCCCC2)n1 ; read by: WST ; result: >100 µM
O=C1NC(=NCc2cccc(F)c2)S/C1=C\c1ccc(-c2ccc(C(=O)O)c(O)c2)o1 ; read by: XTT ; result: >50 µM
Cc1cc(CCC#N)cc(C)c1Oc1cc(Nc2ccc(C#N)cc2)c(N)cc1S(N)(=O)=O ; read by: XTT ; result: 11.1 µM
Cc1cc(/C=C/C#N)cc(C)c1Oc1ccc([N+](=O)[O-])c(Nc2ccc(C#N)cc2)n1 ; read by: XTT ; result: 48.66 µM
CC(=O)N1CCCCC1C(NC(=O)C(=O)Nc1ccc(Cl)cc1)c1nc(C)c(CCO)s1 ; read by: XTT ; result: >84 µM
COc1ccc(Cn2cc(-c3ccc4c(c3)OCO4)c3ccc(-c4ccc5ccccc5c4)nc32)cc1 ; read by: MTT ; result: 58.12 µM
O=C(Cn1cnc2c([N+](=O)[O-])cccc21)Nc1ccccn1 ; read by: MTT ; result: 18.14 µM
Cc1ccc(C(=O)N(CC2CCCCC2)c2ccc(C[C@H](NC(=O)OCC3c4ccccc4-c4ccccc43)C(=O)N3CCCC3C(=O)O)cc2)o1 ; read by: XTT ; result: >57 µM
Cc1nc(C(CN)NC(=O)c2cnc(-c3ccc(Cl)cc3)[nH]2)sc1CO ; read by: XTT / absorbance ; result: >51 µM
N[C@@H](Cc1ccc(NCC2CCCCC2)cc1)C(=O)O ; read by: XTT ; result: >140 µM
COc1cccc(N/N=C/c2ccc3cccc(O)c3n2)c1 ; read by: MTT ; result: 39.89 µM
Fc1ccc(/C=C/c2cc(Cl)c3ccccc3n2)cc1 ; read by: MTT ; result: 73.13 µM
O=C(N[C@@H](Cc1ccc(N(CC2CCCCC2)C(=O)CC2CCCCC2)cc1)C(=O)O)OCC1c2ccccc2-c2ccccc21 ; read by: XTT ; result: 26 µM
CCC(C)SSc1ncc[nH]1 ; read by: XTT ; result: 40.4 µM
N#C/C=C/c1cc(F)c(Nc2nc(N)nc(Nc3ccc(C#N)cc3)n2)c(F)c1 ; read by: WST ; result: 21.41 µM
Cc1nc(C(CN(C)C)NC(=O)c2ccc(-c3ccc(Cl)cc3)[nH]2)sc1CO ; read by: XTT / absorbance ; result: >40 µM
Cc1cn(CC(=O)Nc2ccc(Br)cn2)c(=O)[nH]c1=O ; read by: MTT ; result: 56.5 µM
Cc1ccc(-c2ccc(C(=O)NC(CN(C)C)c3nc(C)c(CO)s3)[nH]2)cc1F ; read by: XTT / absorbance ; result: >40 µM
CC(C)c1ccc(N/N=C/c2ccc3cccc(O)c3n2)cc1 ; read by: MTT ; result: 72.05 µM
O=C(N[C@@H](Cc1ccc(N(CC2CCCCC2)C(=O)Cc2ccccc2)cc1)C(=O)O)OCC1c2ccccc2-c2ccccc21 ; read by: XTT ; result: 36 µM
Cc1cc(C)c(Nc2ccnc(Nc3ccc(C#N)cc3)n2)c(C)c1 ; read by: WST / absorbance ; result: 2.524 µM
CC(C)=CCc1cc(C(O)C2NC(=O)CNC(=O)C(Cc3c[nH]c4ccccc34)NC(=O)C3CCCN3C(=O)CNC(=O)C(C(C)C)CC(=O)CNC2=O)ccc1O ; read by: absorbance ; result: >100 µg/mL
Cc1cc(N2C(=O)CSC2c2c(F)cccc2Cl)nc(C)c1Br ; read by: MTT ; result: 40.2 µg/mL
N=C1Sc2ccccc2C2=NCCCN12 ; result: >300 µM
NCCC(NC(=O)c1ccc(-c2ccc(C(F)(F)F)cn2)[nH]1)c1cnc(CO)s1 ; read by: MTS / absorbance ; result: >122 µM

For reference, 6 entries again:

compound,read by,result
C[Si](C)(CCCN(CCS(=O)(=O)O)CCS(=O)(=O)O)CCC[Si](C)(CCC[Si](C)(C)CCCN(CCS(=O)(=O)O)CCS(=O)(=O)O)CCC[Si](CCC[Si](C)(CCC[Si](C)(C)CCCN(CCS(=O)(=O)O)CCS(=O)(=O)O)CCC[Si](C)(C)CCCN(CCS(=O)(=O)O)CCS(=O)(=O)O)(CCC[Si](C)(CCC[Si](C)(C)CCCN(CCS(=O)(=O)O)CCS(=O)(=O)O)CCC[Si](C)(C)CCCN(CCS(=O)(=O)O)CCS(=O)(=O)O)CCC[Si](C)(CCC[Si](C)(C)CCCN(CCS(=O)(=O)O)CCS(=O)(=O)O)CCC[Si](C)(C)CCCN(CCS(=O)(=O)O)CCS(=O)(=O)O,MTT,>100 µM
O=C(Cn1ccc(=O)[nH]c1=O)Nc1ccc([N+](=O)[O-])cn1,MTT,6.32 µM
O=C(CCC(=O)n1cnc2ccccc21)n1cnc2ccccc21,MTT,202.8 µM
COC(=O)CCCn1cc(-c2cccc(C(=O)N[C@@H](Cc3ccccc3)C(=O)N(C)c3ccc(OC)cc3)c2)nn1,MTT,>35.99 µM
N#C/C=C/c1cc(F)c(Nc2nc(N)nc(Nc3ccc(C#N)cc3)n2)c(F)c1,WST,21.41 µM
Cc1cc(C)c(Nc2ccnc(Nc3ccc(C#N)cc3)n2)c(C)c1,MTT / absorbance,20.4 µM

Rows are shuffled and stem from different studies.